# Data from patent US11479582B2 (KING FAISAL UNIVERSITY, dated 2022).
# Biological target: SARS-CoV-2 spike (S) protein on replication-competent SARS-CoV-2 (SARS-CoV-2, UniProt P0DTC2)
# Assay: cell-based or functional assay
binder,measurement,value
"HRLRQIRGIRARVVQIQKEIWRLNEVAKLLNESLIYLQE [peptide #125 (mutated HR2 39-mer, 'High Affinity')]","SARS-CoV-2 plaque inhibition in Vero E6 cells, peptide at 10 µM",75%
